The results in this text go back to PMC7584437 (Structure (London, England : 1993), 2020).

The assay addresses SARS-CoV-2 3CL M^pro (Severe acute respiratory syndrome coronavirus 2, UniProt P0DTD1). Kind of assay: biochemical.

Usually IC50 stands for the concentration that gives 50% inhibition. Read a low IC50 as higher potency. Consider `CCCC[C@H](NC(=O)[C@@H]1[C@@H]2[C@H](CN1C(=O)[C@@H](NC(=O)NC1(CS(=O)(=O)C(C)(C)C)CCCCC1)C(C)(C)C)C2(C)C)C(=O)C(=O)NC1CC1` [narlaprevir], for which the IC50 is 5.1 µM.
